Measurements as given in article PMC11617668, “Developing Allosteric Inhibitors of SARS‐CoV‐2 RNA‐Dependent RNA Polymerase” (Chemmedchem, 2024).

Test system: SARS‐CoV‐2
Conditions: […]

Row | Structure (SMILES) | EC50
1 | O=C(Nc1cccc(C(F)(F)F)c1)Nc1nc2cc(Cl)c(Cl)cc2[nH]1 [Compound 59, 1‐(5,6‐Dichloro‐1H‐Benzo[d]imidazol‐2‐yl)‐3‐(3‐(Trifluoromethyl)phenyl)urea] | lost the antiviral activity almost completely
2 | FC(F)(F)c1cccc(Nc2nc3cc(Cl)c(Cl)cc3[nH]2)c1 [Compound 56, 5,6‐Dichloro‐N‐(3‐(Trifluoromethyl)phenyl)‐1H‐Benzo[d]imidazol‐2‐Amine] | lost the antiviral activity almost completely
